Compound potency records, mixed from different reports. Data source: NIAID ChemDB in PubChem.

Shared fields: growth or infection tests

Blank or dashed fields: not listed here. ECn is the concentration giving n% inhibition of infection, replication or growth. Inhibition is in % at the dose shown (toxicity tests: loss of growth or viability). Fold resistance has wild type as its base. Neighbouring rows are from separate reports.

smiles | dose | changes | species | read by | cells | endpoint | strain | value
COc1ccc(-c2cnc3nc(N)nc(N4CCOCC4)c3n2)cc1OC | - | - | HIV | - | MT-4 | EC50 | IIIB | >100 µM
O=S(=O)(c1ccccc1)c1cscc1NCC(O)CN(CC1CCCC1)S(=O)(=O)c1ccccc1 | - | - | HIV-1 | p24 | CEM | EC90 | IIIB | 1 µM
CC(C)C1=C2[C@H]3CC[C@@H]4[C@@]5(C)CC[C@H](OC(=O)[C@H]6C[C@@H](C(=O)O)C6(C)C)C(C)(C)[C@@H]5CC[C@@]4(C)[C@]3(C)CC[C@@]2([C@@H](O)CNCCc2ccc(Cl)cc2)CC1=O | - | - | HIV-1 | p24 / ELISA | MT-2 | EC50 | 92HT599 | <1 µM
C[n+]1cn(-c2cn(CCP(=O)(O)O)nn2)c(=O)[nH]c1=O | 100 µM | - | HIV-2 | - | CEM | inhibition | ROD | 0%
O=C(O)c1cc(-n2cccc2)ccc1Cl | - | - | HIV-1 | p24 | PBMC + MT-2 | EC90 | 93IN101 R5 CLADE C | 39.91 µM
CC(C)CN(C(=O)C(=O)C(=O)C(Cc1ccccc1)NC(=O)O[C@H]1CCOC1)S(=O)(=O)c1ccccc1 | - | - | HIV-1 | p24 | CEM | EC90 | IIIB | 1 µM
CCOP(=O)(OCC)C(O)n1cc(N2C=CC(NC(C)=O)NC2=O)nn1 | 100 µM | - | HIV-2 | - | CEM | inhibition | ROD | 0%
C#CCO[C@]12CS(=O)(=O)O[C@@]13[C@@H](CN2)O[C@@H](n1cc(C)c(=O)[nH]c1=O)[C@@H]3O[Si](C)(C)C(C)(C)C | - | - | HIV-2 | - | CEM | EC50 | ROD | >25 µM
CCc1cc(C#N)cc(C(=O)c2cc(Cl)ccc2OCC(=O)Nc2ccc(S(N)(=O)=O)cc2C)c1 | - | RT-K103N Y181C | HIV-1 | β-galactosidase | HeLa + HELA CD4+ | fold resistance | HXB2 (RT-K103N Y181C) Recombinant | ~1
CN1C2N=CN=C(N)C2=NC1c1cn(CCCP(=O)(O)O)nn1 | 100 µM | - | HIV-2 | - | CEM | inhibition | ROD | 0%
CCO[C@]12CS(=O)(=O)O[C@@]13[C@@H](CN2)O[C@@H](n1cc(C)c(=O)[nH]c1=O)[C@@H]3O | - | - | HIV-2 | - | CEM | EC50 | ROD | >250 µM
CC(C)C1=C2[C@H]3CC[C@@H]4[C@@]5(C)CC[C@H](OC(=O)[C@H]6C[C@@H](C(=O)O)C6(C)C)C(C)(C)[C@@H]5CC[C@@]4(C)[C@]3(C)CC[C@@]2([C@@H](O)CNC[C@H]2CCCCN2)CC1=O | - | - | HIV-1 | p24 / ELISA | MT-2 | EC50 | 92HT599 | <1 µM
CCOP(=O)(CCCC(O)n1cc(-n2c[n+](C)c(=O)[nH]c2=O)nn1)OCC | 100 µM | - | HIV-2 | - | CEM | inhibition | ROD | 0%
Cc1nc(NC(=O)NCCc2ccccc2)sc1C | 0.1 µg/mL | - | HIV-2 | RT activity | MT-4 | inhibition | - | 1%
C[n+]1cn(-c2cn(C(O)P(=O)(O)O)nn2)c(=O)[nH]c1=O | 100 µM | - | HIV-2 | - | CEM | inhibition | ROD | 0%
CCS(=O)(=O)Nc1cccc(-c2cnc3nc(N)nc(N4CCOCC4)c3n2)c1 | - | - | HIV | - | MT-4 | EC50 | IIIB | 17.8 µM
C[n+]1cn(-c2cn(C(O)CCCP(=O)(O)O)nn2)c(=O)[nH]c1=O | 100 µM | - | HIV-2 | - | CEM | inhibition | ROD | 0%
O=C(NCCc1ccccc1)Nc1nc2ccccc2s1 | 1 µg/mL | - | HIV-2 | RT activity | MT-4 | inhibition | - | 87%
CCOP(=O)(CC(O)n1cc(C2N=C3C(N)=NC=NC3N2C)nn1)OCC | 100 µM | - | HIV-2 | - | - | inhibition | ROD | 0%
O=C(NCCc1ccccc1)Nc1nc(C(F)(F)F)cs1 | 0.1 µg/mL | - | HIV-2 | RT activity | MT-4 | inhibition | - | 56%
Cc1cc(C#N)cc(C(=O)c2cc(Cl)ccc2OCC(=O)Nc2cnc(S(N)(=O)=O)cc2C)c1 | - | RT-V108I | HIV-1 | β-galactosidase | HeLa + HELA CD4+ | fold resistance | HXB2 | ~1
O=C1Nc2ccc(F)c(F)c2[C@@](/C=C/C2CC2)(C(F)(F)F)N1 | - | RT-V106A | HIV-1 | - | - | EC90 | - | <0.012 µM
Cc1nnc(-c2ccc(CNCC[C@@]34CC[C@]5(C)[C@H](CC[C@@H]6[C@@]7(C)CC[C@H](OC(=O)[C@H]8C[C@@H](C(=O)O)C8(C)C)C(C)(C)[C@@H]7CC[C@]65C)C3=C(C(C)C)C(=O)C4)cc2)o1 | - | - | HIV-1 | p24 / ELISA | MT-2 | EC50 | 92HT599 | <1 µM
O=c1ccn(-c2cn(CP(=O)(O)O)nn2)c(=O)[nH]1 | 100 µM | - | HIV-2 | - | CEM | inhibition | ROD | 0%
CCCCCO[C@]12CS(=O)(=O)O[C@@]13[C@@H](CN2)O[C@@H](n1cc(C)c(=O)[nH]c1=O)[C@@H]3O[Si](C)(C)C(C)(C)C | - | - | HIV-2 | - | CEM | EC50 | ROD | >5 µM
[2H]C(CCCCN)(CNC(=O)C[C@@]12CC[C@]3(C)[C@H](CC[C@@H]4[C@@]5(C)CC[C@H](OC(=O)[C@H]6C[C@@H](C(=O)O)C6(C)C)C(C)(C)[C@@H]5CC[C@]43C)C1=C(C(C)C)C(=O)C2)NC(=O)c1ccc(Cl)cc1 | - | - | HIV-1 | p24 / ELISA | MT-2 | EC50 | 92HT599 | <1 µM
Cc1cc(S(N)(=O)=O)ccc1NC(=O)COc1ccc(Cl)cc1C(=O)c1cccc(C#N)c1 | - | RT-Y181C | HIV-1 | β-galactosidase | HeLa + HELA CD4+ | fold resistance | HXB2 | ~1
CC(C)C1=C2[C@H]3CC[C@@H]4[C@@]5(C)CC[C@H](OC(=O)[C@H]6C[C@@H](C(=O)O)C6(C)C)C(C)(C)[C@@H]5CC[C@@]4(C)[C@]3(C)CC[C@@]2(CCNC(=O)[C@H]2CCCCN2)CC1=O | - | - | HIV-1 | p24 / ELISA | MT-2 | EC50 | 92HT599 | <1 µM
O=C1Nc2ccc(Cl)cc2[C@@](C#CC2CC2)(C(F)(F)F)N1 | - | RT-L100I | HIV-1 | - | - | EC90 | - | 0.006 µM
CC(C)C1=C2[C@H]3CC[C@@H]4[C@@]5(C)CC[C@H](OC(=O)[C@H]6C[C@@H](C(=O)O)C6(C)C)C(C)(C)[C@@H]5CC[C@@]4(C)[C@]3(C)CC[C@@]2([C@@H](O)CNC(=O)c2ccc(N3CCS(=O)(=O)CC3)nc2)CC1=O | - | - | HIV-1 | p24 / ELISA | MT-2 | EC50 | 92HT599 | <1 µM
Cc1cc(C)cc(C(=O)c2cc(Cl)ccc2OCC(=O)Nc2ccc(S(N)(=O)=O)cc2C)c1 | - | RT-Y181C | HIV-1 | β-galactosidase | HeLa + HELA CD4+ | EC50 | HXB2 | <0.01 µM
Nc1cccc(S(=O)(=O)N(CC2CCCC2)C[C@@H](O)CN(CCc2ccccc2)C(=O)O[C@H]2CCOC2)c1 | - | - | HIV-1 | p24 | CEM | EC90 | IIIB | 0.1 µM
CC(C)C1=C2[C@H]3CC[C@@H]4[C@@]5(C)CC[C@H](OC(=O)[C@H]6C[C@@H](C(=O)O)C6(C)C)C(C)(C)[C@@H]5CC[C@@]4(C)[C@]3(C)CC[C@@]2(CCNCc2ccc(Cl)cc2OCCN(C)C)CC1=O | - | - | HIV-1 | p24 / ELISA | MT-2 | EC50 | 92HT599 | <1 µM
N[C@@H](Cc1ccccc1)C(=O)C(F)(F)CN(Cc1ccccc1)S(=O)(=O)c1ccccc1 | - | - | HIV-1 | p24 | CEM | EC90 | IIIB | 1 µM
[2H]C(CNC(=O)C[C@@]12CC[C@]3(C)[C@H](CC[C@@H]4[C@@]5(C)CC[C@H](OC(=O)[C@H]6C[C@@H](C(=O)O)C6(C)C)C(C)(C)[C@@H]5CC[C@]43C)C1=C(C(C)C)C(=O)C2)(NC(=O)c1ccc(Cl)cc1)C(C)O | - | - | HIV-1 | p24 / ELISA | MT-2 | EC50 | 92HT599 | <1 µM

A second listing of 4 rows from above:

{"smiles": "CC(C)CN(C(=O)C(=O)C(=O)C(Cc1ccccc1)NC(=O)O[C@H]1CCOC1)S(=O)(=O)c1ccccc1", "species": "HIV-1", "read by": "p24", "cells": "CEM", "endpoint": "EC90", "strain": "IIIB", "value": "1 µM"}
{"smiles": "CCOP(=O)(OCC)C(O)n1cc(N2C=CC(NC(C)=O)NC2=O)nn1", "dose": "100 µM", "species": "HIV-2", "cells": "CEM", "endpoint": "inhibition", "strain": "ROD", "value": "0%"}
{"smiles": "Cc1cc(C)cc(C(=O)c2cc(Cl)ccc2OCC(=O)Nc2ccc(S(N)(=O)=O)cc2C)c1", "changes": "RT-Y181C", "species": "HIV-1", "read by": "β-galactosidase", "cells": "HeLa + HELA CD4+", "endpoint": "EC50", "strain": "HXB2", "value": "<0.01 µM"}
{"smiles": "CCOP(=O)(CC(O)n1cc(C2N=C3C(N)=NC=NC3N2C)nn1)OCC", "dose": "100 µM", "species": "HIV-2", "endpoint": "inhibition", "strain": "ROD", "value": "0%"}